Test system: BrmGRX
Test: One to one NMR signal-broadening kinetic study, BrmGRX
Format: biochemical, Brucella melitensis

Compound: C=CC(=O)NCc1ccn(-c2ccc(C(=O)O)cc2)c1
- Enhancement of rate of reaction over naked acrylamide, BrmGRX (0.3 mM protein, 0.3 mM compound): did not contribute greatly

Compound: C=CC(=O)NCc1ccn(-c2ccc(C(=O)OC)cc2)c1 [compound 5, Methyl 4-(3-(Acrylamidomethyl)-1H-pyrrol-1-yl)benzoate]
- Selectivity for BrmGRX (reaction rate) (one to one kinetics, BrmGRX versus hGRX): 1.5–2 fold
